Experimental data reported in ChEMBL document CHEMBL5390309, “Characterization of 2,4-Dianilinopyrimidines Against Five P. falciparum Kinases PfARK1, PfARK3, PfNEK3, PfPK9, and PfPKB” (2023).

What was measured:
[1] = Inhibition of Plasmodium falciparum NEK3 incubated for 2 hrs by luciferin-reagent based luminometer analysis
[2] = Inhibition of Plasmodium falciparum PKB incubated for 2 hrs by luciferin-reagent based luminometer analysis
[3] = Inhibition of Plasmodium falciparum ARK3 incubated for 2 hrs by luciferin-reagent based luminometer analysis
[4] = Inhibition of Plasmodium falciparum ARK1 incubated for 2 hrs by luciferin-reagent based luminometer analysis
[5] = Inhibition of Plasmodium falciparum PK9 incubated for 2 hrs by luciferin-reagent based luminometer analysis
[6] = Inhibition of Plasmodium falciparum PKB
Plasmodium falciparum = assay: Antimalarial activity against blood stage Plasmodium falciparum 3D7 assessed as reduction in parasite viability incubated for 72 hrs by SYBR green dye based fluorescence assay
[7] = Binding affinity to Plasmodium falciparum PK9 assessed as dissociation constant

## COc1cc(N2CCOCC2)ccc1Nc1ncc(OC)c(Nc2ccccc2NS(C)(=O)=O)n1
[1]
  IC50: 0.9 µM
[2]
  IC50: 0.7 µM

## CS(=O)(=O)Nc1ccccc1Nc1nc(Nc2ccc(N3CCOCC3)cc2O)ncc1Cl
[1]
  IC50: 0.22 µM
[2]
  IC50: 0.43 µM
[3]
  IC50: 11 µM
[4]
  IC50: 3.1 µM
[5]
  IC50: 1.2 µM

## COc1ccc2c(c1)c(C1=C(c3c[nH]c4ccccc34)C(=O)NC1=O)cn2CCCN(C)C
[6]
  IC50: 1 µM

## COc1cc(N2CCOCC2)ccc1Nc1ncc(C#N)c(Nc2ccccc2NS(C)(=O)=O)n1
Plasmodium falciparum
  EC50: 0.43 µM
[1]
  IC50: 0.14 µM
[2]
  IC50: 0.18 µM

## COc1cc(N2CCOCC2)ccc1Nc1ncc(Cl)c(Nc2ccccc2NS(=O)(=O)c2ccccc2)n1
[1]
  IC50: 1.4 µM
[2]
  IC50: 1.7 µM
[3]
  IC50: 0.33 µM
[4]
  IC50: 4 µM

## COc1cc(N2CCOCC2)ccc1Nc1ncc(C)c(Nc2ccccc2NS(C)(=O)=O)n1
[1]
  IC50: 2.3 µM
[2]
  IC50: 0.16 µM

## COc1cc(N2CCOCC2)ccc1Nc1ncc(Cl)c(Nc2ccccc2NS(=O)(=O)CC(C)C)n1
[1]
  IC50: 3.9 µM
[3]
  IC50: 1.1 µM

## COc1cc(N2CCOCC2)ccc1Nc1ncc(Cl)c(Nc2ccccc2NC(C)=O)n1
[2]
  IC50: 2.1 µM

## COc1cc(N2CCOCC2)ccc1Nc1ncc(C(F)(F)F)c(Nc2ccccc2NS(C)(=O)=O)n1
Plasmodium falciparum
  EC50: 0.38 µM
[1]
  IC50: 0.51 µM
[2]
  IC50: 0.013 µM
[3]
  IC50: 1.4 µM
[4]
  IC50: 1.2 µM
[5]
  IC50: 0.075 µM

## COc1cc(N2CCOCC2)ccc1Nc1ncc(Cl)c(Nc2ccccc2NS(=O)(=O)NC(C)C)n1
[2]
  IC50: 5 µM
[3]
  IC50: 1.4 µM
[4]
  IC50: 5.1 µM

## COc1cc(N2CCOCC2)ccc1Nc1ncc(C(F)(F)F)c(Nc2ccccc2N)n1
[2]
  IC50: 1.1 µM

## COc1cc(N2CCOCC2)ccc1Nc1ncc(-c2cnn(C)c2)c(Nc2ccccc2NS(C)(=O)=O)n1
[1]
  IC50: 1.2 µM

## Cc1n[nH]c2ccc(-c3cncc(OC[C@@H](N)Cc4c[nH]c5ccccc45)c3)cc12
[6]
  IC50: 0.2 µM

## COc1cc(Nc2ncc(Cl)c(Nc3ccccc3NS(C)(=O)=O)n2)ccc1N1CCOCC1
Plasmodium falciparum
  EC50: 0.16 µM
[1]
  IC50: 0.06 µM
[2]
  IC50: 0.014 µM
[3]
  IC50: 6 µM
[4]
  IC50: 0.24 µM
[5]
  IC50: 0.04 µM

## CCOc1cc(N2CCOCC2)ccc1Nc1ncc(Cl)c(Nc2ccccc2NS(C)(=O)=O)n1
[1]
  IC50: 2 µM
[2]
  IC50: 0.75 µM
[3]
  IC50: 49 µM
[4]
  IC50: 12 µM
[5]
  IC50: 11 µM

## CS(=O)(=O)Nc1ccccc1Nc1nc(Nc2ccc(N3CCOCC3)cc2Cl)ncc1Cl
[1]
  IC50: 0.55 µM
[2]
  IC50: 0.037 µM
[3]
  IC50: 7 µM
[4]
  IC50: 2.7 µM
[5]
  IC50: 0.59 µM

## Cc1cc(N2CCOCC2)ccc1Nc1ncc(Cl)c(Nc2ccccc2NS(C)(=O)=O)n1
[1]
  IC50: 0.29 µM
[2]
  IC50: 0.12 µM
[3]
  IC50: 7 µM
[4]
  IC50: 2 µM
[5]
  IC50: 0.46 µM

## CS(=O)(=O)Nc1ccccc1Nc1nc(Nc2ccc(N3CCOCC3)c(Cl)c2)ncc1Cl
Plasmodium falciparum
  EC50: 0.43 µM
[1]
  IC50: 0.12 µM
[2]
  IC50: 0.017 µM
[3]
  IC50: 14 µM
[4]
  IC50: 0.34 µM
[5]
  IC50: 0.056 µM

## CCS(=O)(=O)Nc1ccccc1Nc1nc(Nc2ccc(N3CCOCC3)cc2OC)ncc1Cl
[1]
  IC50: 0.84 µM
[2]
  IC50: 0.18 µM
[3]
  IC50: 0.46 µM
[5]
  IC50: 0.64 µM

## COc1cc(N2CCOCC2)ccc1Nc1ncc(C2CC2)c(Nc2ccccc2NS(C)(=O)=O)n1
Plasmodium falciparum
  EC50: 1.2 µM
[2]
  IC50: 0.24 µM

## CCCn1/c(=N/C(=O)c2cccc(C(N)=O)c2)[nH]c2ccccc21
[7]
  Kd: 0.45 µM

## CCc1cnc(Nc2ccc(N3CCOCC3)cc2OC)nc1Nc1ccccc1NS(C)(=O)=O
[1]
  IC50: 0.6 µM
[2]
  IC50: 0.17 µM

## COc1cc(N2CCOCC2)ccc1Nc1ncc(Cl)c(Nc2ccccc2NS(=O)(=O)c2cn(C)cn2)n1
[1]
  IC50: 1.4 µM
[2]
  IC50: 2.1 µM

## COc1cc(N2CCOCC2)ccc1Nc1ncc(Cl)c(Nc2ccccc2NC(N)=O)n1
[2]
  IC50: 0.079 µM
[5]
  IC50: 0.1 µM

## COc1cc(N2CCOCC2)ccc1Nc1ncc(I)c(Nc2ccccc2NS(C)(=O)=O)n1
Plasmodium falciparum
  EC50: 0.54 µM
[1]
  IC50: 0.41 µM
[2]
  IC50: 0.05 µM
[3]
  IC50: 1.2 µM
[5]
  IC50: 0.072 µM

## CS(=O)(=O)Nc1ccccc1Nc1nc(Nc2ccc(N3CCOCC3)cc2)ncc1Cl
Plasmodium falciparum
  EC50: 0.43 µM
[1]
  IC50: 0.11 µM
[2]
  IC50: 0.021 µM
[3]
  IC50: 2 µM
[4]
  IC50: 0.38 µM
[5]
  IC50: 0.044 µM

## CS(=O)(=O)Nc1ccccc1Nc1nc(Nc2ccc(N3CCOCC3)cc2F)ncc1Cl
[1]
  IC50: 0.42 µM
[2]
  IC50: 0.051 µM
[3]
  IC50: 8 µM
[4]
  IC50: 1.9 µM
[5]
  IC50: 0.35 µM

## CS(=O)(=O)Nc1ccccc1Nc1nc(Nc2ccc(N3CCOCC3)c(C(F)(F)F)c2)ncc1Cl
[1]
  IC50: 0.049 µM
[2]
  IC50: 0.054 µM
[3]
  IC50: 8 µM
[4]
  IC50: 0.54 µM
[5]
  IC50: 0.11 µM

## COc1cc(N2CCOCC2)ccc1Nc1ncc(F)c(Nc2ccccc2NS(C)(=O)=O)n1
[2]
  IC50: 1.5 µM

## COc1cc(N2CCOCC2)ccc1Nc1ncc(Cl)c(Nc2ccccc2NS(=O)(=O)C2CC2)n1
[1]
  IC50: 0.36 µM
[2]
  IC50: 0.12 µM
[3]
  IC50: 0.44 µM
[4]
  IC50: 1.3 µM
[5]
  IC50: 0.45 µM

## COc1cc(N2CCOCC2)ccc1Nc1ncc(Cl)c(Nc2ccccc2NS(C)(=O)=O)n1
Plasmodium falciparum
  EC50: 0.34 µM
[1]
  IC50: 1 µM
[2]
  IC50: 0.07 µM
[3]
  IC50: 1.8 µM
[4]
  IC50: 3.4 µM
[5]
  IC50: 1.2 µM

## Cc1cc(Nc2ncc(Cl)c(Nc3ccccc3NS(C)(=O)=O)n2)ccc1N1CCOCC1
Plasmodium falciparum
  EC50: 0.35 µM
[1]
  IC50: 0.057 µM
[2]
  IC50: 0.015 µM
[3]
  IC50: 7 µM
[4]
  IC50: 0.18 µM
[5]
  IC50: 0.03 µM

## COc1cc(N2CCOCC2)ccc1Nc1ncc(N(C)C)c(Nc2ccccc2NS(C)(=O)=O)n1
[1]
  IC50: 1.8 µM
[2]
  IC50: 0.24 µM

## COc1cc(N2CCOCC2)ccc1Nc1ncc(C(N)=O)c(Nc2ccccc2NS(C)(=O)=O)n1
[1]
  IC50: 2.5 µM
[2]
  IC50: 0.31 µM
[4]
  IC50: 1.1 µM
[5]
  IC50: 0.21 µM

## COc1cc(N2CCOCC2)ccc1Nc1ncc(Br)c(Nc2ccccc2NS(C)(=O)=O)n1
Plasmodium falciparum
  EC50: 0.69 µM
[1]
  IC50: 0.44 µM
[2]
  IC50: 0.042 µM
[3]
  IC50: 1 µM
[5]
  IC50: 0.29 µM
